Reference: patent publication US20030124550

The chains behind the UniProt entries cited, without tags or fusion partners. Where a name states a change or a piece, a line headed by the entry shows the natural chain unless it says otherwise.
UniProt P26599: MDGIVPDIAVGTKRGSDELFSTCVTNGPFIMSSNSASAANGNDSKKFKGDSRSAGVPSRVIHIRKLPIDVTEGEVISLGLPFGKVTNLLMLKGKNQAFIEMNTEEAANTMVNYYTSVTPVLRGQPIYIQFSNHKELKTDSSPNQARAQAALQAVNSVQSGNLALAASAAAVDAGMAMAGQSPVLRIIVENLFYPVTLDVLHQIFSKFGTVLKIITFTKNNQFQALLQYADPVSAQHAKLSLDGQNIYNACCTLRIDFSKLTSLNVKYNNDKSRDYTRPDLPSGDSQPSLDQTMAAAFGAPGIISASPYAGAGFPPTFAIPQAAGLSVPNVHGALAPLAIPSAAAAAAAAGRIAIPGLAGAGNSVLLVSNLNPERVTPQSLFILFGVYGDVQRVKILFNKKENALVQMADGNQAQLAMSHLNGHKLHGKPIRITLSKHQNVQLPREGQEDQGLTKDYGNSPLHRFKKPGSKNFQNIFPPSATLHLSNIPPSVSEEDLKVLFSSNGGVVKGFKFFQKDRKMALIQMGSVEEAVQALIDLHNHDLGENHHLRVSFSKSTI

Columns and labels:
[1] = molecular target: 40S ribosomal protein S5 (rpS5, p25) (Homo sapiens) (UniProt P46782); assay: binding assay; conditions: UV crosslinking then immunoprecipitation with anti-rpS5 under denaturing conditions; p25 in 40S-containing macromolecular complex; protein in an extract; label: [32P]UTP internal
[2] = molecular target: Polypyrimidine tract-binding protein (PTB) (Homo sapiens) (UniProt P26599); assay: binding assay; conditions: UV crosslinking then immunoprecipitation with anti-PTB; single 58 kDa crosslinked protein; protein in an extract; label: [32P]UTP internal

“GCCAGCCCCCUGAUGGGGGCGACACUCCACCAUGAAUCACUCCCCUGUGAGGAACUACUGUCUUCACGCAGAAAGCGUCUAGCCAUGGCGUUAGUAUGAGUGUCGUGCAGCCUCCAGGACCCCCCCUCCCGGGAGAGCCAUAGUGGUCUGCGGAACCGGUGAGUACACCGGAAUUGCCAGGACGACCGGGUCCUUUCUUGGAUAAACCCGCUCAAUGCCUGGAGAUUUGGGCGUGCCCCCGCAAGACUGCUAGCCGAGUAGUGUUGGGUCGCGAAAGGCCUUGUGGUACUGCCUGAUAGGGUGCUUGCGAGUGCCCCGGGAGGUCUCGUAGACCGUGCACCAUGAGC [HCV 5'NCR IRES RNA (nt 1-347)]”: binds [1]; binds [2].

For at least one entry, the source does not settle the construct or the ends of the probe. At least one result comes from cells or an extract, where the contact may be indirect.
